Marks after values point to notes of the source that are not given here.
What was measured:
[1] = tested on: HCMV isolates Towne, AD169, E. Mann, Coffman, C9208; experiment: Anti-CMV plaque reduction assay against various laboratory and clinical isolates (Example 40); format: cell-based, human cytomegalovirus; conditions: MTC/EC50
Procedure: On the date of assay, the drug is made up at twice the desired concentration in 2x MEM and then serially diluted 1:5 in 2x MEM using six concentrations of drug. The initial starting concentration is usually 200 gg/mL down to 0.06 μg/mL. […] The media is then aspirated from the wells and 0.2 mL of virus is added to each well in duplicate with 0.2 mL of media being added to drug toxicity wells. The plates are then incubated for one hour with shaking every fifteen minutes. […] This will give final drug concentrations beginning with 100 μg/mL and ending with 0.03 μg/mL and a final agarose overlay concentration of 0.5%. The drug agarose mixture is applied to each well in 2 mL volume and the plates then incubated for three days, after which the cells were stained with a 1.5% solution of neutral red. At the end of 4-6hr incubation period, the stain is aspirated, and plaques counted using a stereomicroscope at lOx magnification. The procedure again is nearly the same as for HSV with a few minor changes. […] The assay is incubated for 14 days with the additional 1 mL overlays being applied on days four and eight. The procedure for the liquid overlay plaque assay is similar to that using the agarose overlay. The procedure for adding the virus is the same as for the regular plaque assay. The drugs are made up in a concentration to be used in MEM with 2% FBS. The drugs are not made up at 2x concentration as in the previous assays but are made up at the desired concentration. For HSV-1 and HSV-2 assays, an antibody preparation obtained from Baxter Health Care Corporation is diluted 1:500 and added to the media that the drug is diluted in. For CMV and VZV, no antibody in the overlay is utilized. For the CMV assay, additional medium without new drug is added on day five and allowed to incubate for a total of 10 days. For VZV, additional medium is added on day five and incubated for a total of 10 days. At the end of the incubation period for all of the assays, 2 mL of 1:10 dilution of stock neutral is added to each well incubated for six hours. The liquid is then aspirated off and plaques enumerated using a stereomicroscope. Five calanolide analogues, prepared as described above, were further evaluated for their anti-HCMV activity in plaque reduction assay against various laboratory and clinical isolates (Towne, AD 169, E. Mann, Coffinan, and […]).

HIV-1 = conditions: IC50/EC50
HCMV = HCMV semi-automated CPE-inhibition assay in human foreskin fibroblast cells; format: cell-based, human cytomegalovirus; conditions: IC50/EC50
EBV = EBV assay: superinfection of Raji or Daudi cells with P3HR-1, immunofluorescence for EA and VCA; format: cell-based, Epstein-Barr virus; conditions: IC50/EC50
Text: There are two prototypes of infectious EBV. One is exemplified by the virus derived from supernatant fluids of the P3HR-1cell line. This cell line produces nontransforming virus that causes the production of early antigen (EA) after primary infection or superinfection of B cell lines. The other prototype is exemplified by the B-95-8 virus. This virus immortalized cord blood lymphocytes and induced tumors in marmosets.
The virus used in our assays is P3HR-1.
Ramos is an exceptional B cell line derived from Burkitt's lymphoma tumor but containing no detectable EBV genome copies and is EBNA negative. Ramos/AW was obtained by in vitro infection of Ramos with the P3HR-1 virus and contains one resident EBV genome copy/cell. Raji is a Burkitt's lymphoma cell line containing 60 EBV genomes/cell, and will be the primary cell used for screening antiviral activity against EBV EA expression. Daudi is a low level producer that contains 152 EBV genome copies/cell. It spontaneously expresses EBV EA in 0.25%-0.5% of the cells. It will be used in follow-up studies to confirm activity. These cell lines respond to superinfection by EBV by expressing EA(D), EA(R), and VCA. All cell lines are maintained in RPMI-1640 medium supplemented by 10% FCS, L-glutamine and 100 μg/mL gentamicin. The cultures are fed twice weekly and the cell concentration adjusted to 3×10^5/mL. The cells are kept at 37° C. in a humidified atmosphere with 5% CO2.
Cells are infected with the P3HR-1 strain of EBV and the drugs to be tested are added after adsorption (45 minutes at 37° C.) and washing of the cell cultures. The cultures are incubated for two days in complete medium to allow viral gene expression. Following the 48 hr incubation period, the number of cells of each sample are counted and smears made. Monoclonal antibodies to the different EA components and VCA are then added to the cells incubated and washed. This is followed by a fluorescein conjugated rabbit anti-mouse Ig antibody; and the number of fluorescence positive cells in the smears are counted. The total number of cells in the cultures positive for EA or VCA are then calculated and compared.

VZV = VZV plaque reduction assay in human foreskin fibroblast cells; format: cell-based, varicella zoster virus; conditions: IC50/EC50
Procedure: Two days prior to use, HFF cells are plated into six-well plates and incubated at 37° C. with 5% CO2 and 90% humidity. On the date of assay, the drug is made up at twice the desired concentration in 2x MEM and then serially diluted 1:5 in 2x MEM using six concentrations of drug. The initial starting concentration is usually 200 gg/mL down to 0.06 μg/mL. The virus to be used is diluted in MEM containing 10% FBS to a desired concentration which will give 20-30 plaques per well. The media is then aspirated from the wells and 0.2 mL of virus is added to each well in duplicate with 0.2 mL of media being added to drug toxicity wells. The plates are then incubated for one hour with shaking every fifteen minutes. After the incubation period, an equal amount of 1% agarose was added to an equal volume of each drug dilution. This will give final drug concentrations beginning with 100 μg/mL and ending with 0.03 μg/mL and a final agarose overlay concentration of 0.5%. The drug agarose mixture is applied to each well in 2 mL volume and the plates then incubated for three days, after which the cells were stained with a 1.5% solution of neutral red. At the end of 4-6hr incubation period, the stain is aspirated, and plaques counted using a stereomicroscope at lOx magnification.
The procedure is essentially the same as for the HSV plaque assay described above with two exceptions:
1. After addition of the drug, the plates are incubated for ten days.
2. On days three and six, an additional 1 mL overlay with equal amounts of 2x MEM and 1% agarose are added.

HBV = HBV replication in cultures of 2.2.15 cells, extracellular HBV virion DNA (primary assay); conditions: for HBV SI: IC50/EC50; for HBV Virion SI: SI is IC50/EC90
HBV RI = experiment: HBV replication in 2.2.15 cells, intracellular DNA replication intermediates (secondary assay); conditions: SI is IC50/EC90

SMILES	TI ([1]; isolate AD169)	TI ([1]; isolate C9208)	TI ([1]; isolate Coffman)	TI ([1]; isolate E. Mann)	TI ([1]; isolate Towne)	TI (HIV-1)	HCMV SI (HCMV)	EBV SI (EBV)	VZV SI (VZV)	HBV SI (HBV)	HBV Virion SI (HBV)	HBV RI SI (HBV RI)
CCCc1cc(=O)oc2c3c(c4c(c12)OC(C)(C)C=C4)OC(C)C(C)C3=O (racemic) [(±)-7, 10,11-trans-dihydro-4-propyl-6,6,10,11-tetramethyl-2H,6H,12H-benzo[1,2-b:3,4-b′:5,6-b″]-tripyran-2,12-dione]	32	14	>30	32	>30	16						
CCCc1cc(=O)oc2c3c(c4c(c12)OC(C)(C)C=C4)OCC(C)C3=O (racemic) [(±)-15f]							<1	<1	<3	400^e	61	20
CCCc1cc(=O)oc2c3c(c4c(c12)OC(C)(C)C=C4)OC(C)C(C)(C)C3=O (racemic) [(±)-15a, (±)-10,11-Dihydro-6,6,10,11,11-pentamethyl-4-propyl-2H,6H, 12H-benzo[1,2-b:3,4-b′:5,6-b″]tripyran-2,12-dione]							<1			993^f	89	<60
CCCc1cc(=O)oc2c3c(c4c(c12)OC(C)(C)C=C4)OC(C)C(C)C3=O (racemic) [(±)-7a]	3.2	3.8	3.2	3.2	3.2	4	132	1	2.4	1		
CCCc1cc(=O)oc2c3c(c4c(c12)OC(C)(C)CC4)OC(C)C(C)C3=O (racemic) [(±)-18a, (±)-10,11-trans4-Propyl-7,8,10,11-tetrahydro-6,6,10,11-tetramethyl-2H,6H,12H-benzo [1,2-b:3,4-b′5,6-b″]tripyran-2,12-dione]						4	<5	>2	2.2	<9		
CCCc1cc(=O)oc2c3c(c4c(c12)OC(C)(C)C=C4)O[C@H](C)[C@@H](C)C3=O [(+)-7, 10(R),11(R)-trans-Dihydro6,6,10,11-tetramethyl-4-propyl-2H,6H,12H-benzo [1,2-b:3,4-b′:5,6-b″]tripyran-2,12-dione]	32	>20	>21	22	>20	107	435	>53	1.8	8		
CCCc1cc(=O)oc2c3c(c4c(c12)OC(C)(C)C=C4)OC(C)C(C)(C)C3O (racemic) [(±)-16b, (±)-10,12-trans-10,11-dihydro-12-hydroxy-6,6,10,11,11-pentamethyl-4-propyl-2H,6H,12H-benzo [1,2-b:3,4-b′:5,6-b″]tripyran-2-one]						7						

Source: patent US20020013478A1, “Calanolide analogues and methods of their use” (Sarawak Medichem Pharmaceuticals,Inc., priority 1994, published 2002)
